Anti-infective test results gathered from many reports (values: NIAID ChemDB through PubChem).

All rows: whole-cell or culture tests; organism: Mycobacterium tuberculosis

Conditions beyond the fields shown may differ between rows. ECn is the concentration giving n% inhibition of infection, replication or growth. A number after MIC or MFC names an inhibition level or a share of isolates. Blank or dashed fields: not listed here. MIC bound comes from a single tested concentration. Percent inhibition refers to the dose given; in toxicity tests it is the harm to the cells.

| smiles | cell line | read by | conditions | changes | strain | measure | tested at | result |
|---|---|---|---|---|---|---|---|---|
| CC1=C(C(=O)Nc2cc(C)ccc2C)C(c2cccc(Cl)c2)C(C(=O)Nc2cc(C)ccc2C)=C(C)N1 |  |  |  |  | H37Rv | MIC |  | >6.25 µg/mL |
| O=C1C2=Cc3ccccc3OC2(O)Oc2ccccc21 |  | BACTEC |  |  | H37Rv | MIC bound |  | >12.5 µg/mL |
| CCOc1cccc(NC(=O)OCC[NH+]2CCCC2)c1 |  |  |  |  | My 331/88 | MIC |  | >1000 µM |
| Nc1ncnc2nc([C@@H]3O[C@H](CO)[C@@H](O)[C@@H]3O)[nH]c12 |  | BACTEC |  |  | H37Rv | MIC bound |  | >12.5 µg/mL |
| C/C=C/C/C=C/CCC(=O)[C@H]1O[C@H]1C(N)=O |  |  |  |  | 90-0201 (DRUG-SUS) | MIC |  | 5 µg/mL |
| NC(=O)c1cnccn1 |  |  |  |  | Isolate 9131 monodrug-resistant | MIC |  | >300 µg/mL |
| Cc1c([N+](=O)[O-])oc2cc3c(cc12)CCCC3 |  | resazurin |  |  | H37Rv | MIC bound |  | >6.25 µg/mL |
| Oc1[nH]c2ccc(OC(F)(F)F)cc2c1N=NC(=S)Nc1ccc(F)cc1 |  | broth dilution / resazurin |  |  | H37Rv | EC50 |  | 1.333 µg/mL |
| CN[C@@H]1[C@H](O[C@H]2[C@H](O[C@H]3[C@H](O)[C@@H](O)[C@H](N=C(N)N)[C@@H](O)[C@@H]3N=C(N)N)O[C@@H](C)[C@]2(O)C=O)O[C@@H](CO)[C@H](O)[C@H]1O |  |  |  |  | MTB23 (S) | MIC |  | 0.3 µg/mL |
| COc1ccc2[nH]c3c(C)c4ccncc4c(C)c3c2c1 |  |  |  |  | RMP-R | MIC |  | 0.2 µg/mL |
| CO[C@H]1/C=C/O[C@@]2(C)Oc3c(C)c(O)c4c(O)c(c5c(c4c3C2=O)NC2(CCN(CC(C)C)CC2)N=5)=NC(=O)/C(C)=C\C=C\[C@H](C)[C@H](O)[C@@H](C)[C@@H](O)[C@@H](C)[C@H](OC(C)=O)[C@@H]1C |  |  |  |  | S-24M (susceptible) | MIC |  | 0.05 µg/mL |
| c1ccc(Cn2cnc3cnc(-c4ccco4)nc32)cc1 |  | BACTEC |  |  | H37Rv | EC50 |  | >12.5 µg/mL |
| O=C(N/N=C/c1ccccc1F)c1ccncc1 |  |  |  |  | Rifampicin-resistant | MBC |  | 0.4 µg/mL |
| Nc1nc(C#Cc2ccccc2)c2ncn(Cc3ccccc3)c2n1 |  | BACTEC |  |  | H37Rv | EC50 |  | <12.5 µg/mL |
| COc1nc2ccc(Br)cc2cc1C(c1ccccc1)C(O)(CCN1CCN(C)CC1)c1ccccc1 |  |  |  |  | H37Rv | MIC90 |  | 7.06 µg/mL |
| NNC(=O)c1ccncc1 |  |  |  |  | MTB24 (S) | MIC |  | 0.12 µg/mL |
| CC1NC(=O)C2=C1C(=O)NC(=O)C2 |  | BACTEC |  |  | H37Rv | inhibition | 12.5 µg/mL | 7% |
| CC1=C(C(=O)Nc2ccccc2Cl)C(c2ccc(Cl)cc2Cl)C(C(=O)Nc2ccccc2Cl)=C(C)N1 |  |  |  |  | H37Rv | EC50 |  | >2.5 µg/mL |
| Cc1ccc(NC(=S)N=Nc2c(O)[nH]c3ccc(C)cc23)cc1 |  | broth dilution / resazurin |  |  | H37Rv | EC50 |  | 1.422 µg/mL |
| CCCCCCCCCCOc1ccc(NC(=O)OCCN(C)C)cc1 |  |  |  |  | My 331/88 | MIC |  | 4 µM |
| Cc1c(OCC(=O)N/N=C/c2ccc(N(CCCl)CCCl)cc2)ccc2c(=O)c3ccccc3oc12 |  | BACTEC |  |  | H37Rv | inhibition | 12.5 µg/mL | 68% |
| NNC(=O)c1ccncc1 |  |  |  |  | 90-0145 (DRUG-SUS) | MIC |  | 0.04 µg/mL |
| CC1(C)CC(N=c2cc3n(-c4ccc(Cl)c(Cl)c4)c4ccccc4nc-3cc2Nc2ccc(Cl)c(Cl)c2)CC(C)(C)N1 | Macrophages |  | inside macrophages |  | H37Rv | EC50 |  | <0.005 µg/mL |
| CCCCOc1ccc(NC(=O)OCCN2CCCCC2)cc1 |  |  |  |  | My 331/88 | MIC |  | 62.5 µM |
| N#CC1=C(N)OC(C2CC2)=C(C#N)C1c1ccco1 |  | BACTEC |  |  | H37Rv | MIC bound |  | >12.5 µg/mL |
| C(#Cc1ncc2ncn(Cc3ccccc3)c2n1)c1ccccc1 |  | BACTEC |  |  | H37Rv | EC50 |  | >12.5 µg/mL |
| CC(=O)Nc1ccc(C2=N/C(=C\c3ccc(Cl)cc3)C(=O)O2)cc1 |  | BACTEC |  |  | H37Rv | MIC bound |  | >12.5 µg/mL |
| Nc1cccc(-c2cc(C(F)(F)F)nc3c(C(F)(F)F)cccc23)c1 |  |  |  |  |  | MIC |  | 60 µM |
| CO[C@H]1/C=C/O[C@@]2(C)Oc3c(C)c(O)c4c(=O)c(c5oc6cc(N7CCN(CC(C)C)CC7)cc(=O)c6nc5c4c3=C2O)NC(=O)/C(C)=C\C=C\[C@H](C)[C@H](O)[C@@H](C)[C@@H](O)[C@@H](C)[C@H](OC(C)=O)[C@@H]1C |  |  |  |  | Erdman | MBC |  | 0.004 µg/mL |
| CC1=NN(C(=O)CC(=O)Nc2ccccc2C)C(=O)C1N=Nc1ccc(S(=O)(=O)c2ccc(N=NC3C(=O)N(C(=O)CC(=O)Nc4ccccc4C)N=C3C)cc2)cc1 |  | BACTEC |  |  | H37Rv | inhibition | 12.5 µg/mL | 0% |
| CCOc1ccccc1NC(=O)OCCN1CCCCC1 |  |  |  |  | My 331/88 | MIC |  | 1000 µM |
| CC1=C(C(=O)Nc2ccccc2C)C(c2ccccc2Cl)C(C(=O)Nc2ccccc2C)=C(C)N1 |  |  |  |  | H37Rv | MIC |  | >12.5 µg/mL |
| COc1nc2ccc(Br)cc2cc1C(c1ccccc1)C(O)(CCN1CCCCC1)c1cccc2ccccc12 |  |  |  |  | H37Rv | MIC90 |  | 59.56 µg/mL |
| CCCOc1cccc(NC(=O)OCCN2CCCCC2)c1 |  |  |  |  | My 331/88 | MIC |  | 250 µM |
| CC(C)OC(=S)SSC(=S)NCCNC(=S)SSC(=S)OC(C)C |  | BACTEC |  |  | H37Rv | MIC bound |  | >6.25 µg/mL |
| COc1ccccc1NC(=O)OCCN1CCOCC1 |  |  |  |  | My 331/88 | MIC |  | 1000 µM |
| O=C(NNCc1cccc(C(F)(F)F)c1)c1ccncc1 |  |  |  |  | Ethionamide-resistant | MIC |  | >6.25 µg/mL |
| CCNC(=S)N=Nc1c(O)[nH]c2ccc(C)cc12 |  | broth dilution / resazurin |  |  | H37Rv | EC90 |  | >100 µg/mL |
| O=C(N/N=C/c1cccc(C(F)(F)F)c1)c1ccncc1 |  |  |  |  | Kanamycin-resistant | MIC |  | 0.1 µg/mL |
| CC1=C(C(=O)Nc2ccc(C)cc2C)C(c2ccc(O)cc2)C(C(=O)Nc2ccc(C)cc2C)=C(C)N1 |  |  |  |  | H37Rv | MIC |  | >12.5 µg/mL |
| CC1=C(C(=O)Nc2ccc([N+](=O)[O-])cc2)C(c2ccccc2Cl)C(C(=O)Nc2ccc([N+](=O)[O-])cc2)=C(C)N1 |  |  |  |  | H37Rv | inhibition | 2.5 µg/mL | 95% |
| CNC(=S)N=Nc1c(O)[nH]c2ccc(C)cc12 |  | broth dilution / resazurin |  |  | H37Rv | EC50 |  | >100 µg/mL |
| CCCCCCCCCOc1cccc(NC(=O)OCCN(C)C)c1 |  |  |  |  | My 331/88 | MIC |  | 8 µM |
| CCCCCCCCCCCCNC(=S)C(=S)NCCCCCCCCCCCC |  | resazurin |  |  | H37Rv | MIC bound |  | >6.25 µg/mL |
| O=[N+]([O-])c1ccc(NC(=S)N=Nc2c(O)[nH]c3ccc(OC(F)(F)F)cc23)cc1 |  | broth dilution / resazurin |  |  | H37Rv | EC90 |  | >100 µg/mL |
| CC(NNC(=O)c1ccncc1)c1ccc(F)cc1 |  |  |  |  | Rifampicin-resistant | MBC |  | 12.5 µg/mL |
| Cc1nn(C(=O)c2ccccc2O)c2c1C(c1ccco1)SC(N)=N2 |  | BACTEC |  |  | H37Rv | inhibition | 12.5 µg/mL | 14% |
| Clc1nc(/C=C/c2ccccc2)nc2c1ncn2Cc1ccccc1 |  | BACTEC |  |  | H37Rv | EC50 |  | <12.5 µg/mL |
| CC(=O)O/N=C1/C=Cc2c(no[n+]2[O-])C1=O |  | resazurin |  |  | H37Rv | inhibition | 6.25 µg/mL | 49% |
| COc1cc(C2C(C(=O)Nc3ccc(F)cc3)=C(C)NC(C)=C2C(=O)Nc2ccc(F)cc2)cc(OC)c1OC |  |  |  |  | H37Rv | MIC |  | >6.25 µg/mL |
| Clc1nc(C#Cc2ccccc2)nc2c1ncn2Cc1ccccc1 |  | BACTEC |  |  | H37Rv | EC50 |  | >12.5 µg/mL |
| O=Cc1cn(CCCCCCCCn2cc(C=O)c3ccccc32)c2ccccc12 |  | BACTEC |  |  | H37Rv | MIC bound |  | >12.5 µg/mL |
| Cn1c(O)c(N=NC(=S)Nc2ccc(Cl)cc2)c2cc(OC(F)(F)F)ccc21 |  | broth dilution / resazurin |  |  | H37Rv | EC90 |  | >100 µg/mL |
| Clc1cc2nc(C3CCCO3)[nH]c2cc1Cl |  | resazurin |  |  | H37Rv | inhibition | 6.25 µg/mL | 18% |
| CO[C@H]1/C=C/O[C@@]2(C)Oc3c(C)c(O)c4c(O)c(c(/C=N/N5CCN(C)CC5)c(O)c4c3C2=O)NC(=O)/C(C)=C\C=C\[C@H](C)[C@H](O)[C@@H](C)[C@@H](O)[C@@H](C)[C@H](OC(C)=O)[C@@H]1C |  |  |  | 531Trp |  | MIC99 |  | ≥640 µg/mL |
| C[C@H](N)C(=O)N[C@@H]1[C@H]2C(=C(O)C[C@@H](O)[C@@H]2O)C(=O)O[C@]1(C)C(Cl)Cl |  |  |  |  | PZA-R | MIC |  | 1.6 µg/mL |
| COc1nc2cc(C)c(Br)cc2cc1C(c1ccccc1)C(O)(CCN(C)C)c1cccc2ccccc12 |  |  |  |  | H37Rv | MIC90 |  | 1.8 µg/mL |
| CC(C)N=c1cc2n(-c3ccc(Cl)cc3)c3ccccc3nc-2cc1Nc1ccc(Cl)cc1 |  |  |  |  | 90-0145 (DRUG-SUS) | MIC |  | 0.2 µg/mL |
| FC(F)(F)c1cc(N2CCNCC2)c2cccc(C(F)(F)F)c2n1 |  |  |  |  |  | MIC |  | 62 µM |
| CC1=C(C(=O)Nc2ccccc2Cl)C(c2ccccc2S)C(C(=O)Nc2ccccc2Cl)=C(C)N1 |  |  |  |  | H37Rv | inhibition | 2.5 µg/mL | 10% |
| CCCOc1cccc(NC(=O)OCCN(C)C)c1 |  |  |  |  | My 331/88 | MIC |  | 500 µM |
| C/C(=N\NC(=O)c1ccncc1)c1ccccc1 |  |  |  |  | Rifampicin-resistant | MIC |  | 0.2 µg/mL |
| Fc1cccc(Cl)c1C1SCc2nc3ccccc3n21 |  | BACTEC |  |  | H37Rv | MIC bound |  | >12.5 µg/mL |
| CC(C)(C)OC(=O)N1CCCC[C@H]1[C@@H](O)c1cc(C(F)(F)F)nc2c(C(F)(F)F)cccc12 |  |  |  |  |  | MIC |  | 61 µM |
| CO[C@H]1/C=C/O[C@@]2(C)Oc3c(C)c(O)c4c(O)c(c(/C=N/N5CCN(C6CCCC6)CC5)c(O)c4c3C2=O)NC(=O)/C(C)=C\C=C\[C@H](C)[C@H](O)[C@@H](C)[C@@H](O)[C@@H](C)[C@H](OC(C)=O)[C@@H]1C |  |  |  |  | L404 | MIC |  | 0.05 µg/mL |
| C[CH2][Sn]([Cl])([Br])[CH2]C.c1cnc2c(c1)ccc1cccnc12 |  | BACTEC |  |  | H37Rv | MIC bound |  | ≤12.5 µg/mL |
| Oc1c(N=NC(=S)NCc2ccccc2)c2cc(OC(F)(F)F)ccc2n1CN1CCOCC1 |  | broth dilution / resazurin |  |  | H37Rv | EC90 |  | >100 µg/mL |
| Cc1ccc(N=Nc2ccc(N(C)C)cc2)c2cccnc12 |  | resazurin |  |  | H37Rv | inhibition | 6.25 µg/mL | 14% |
| COc1ccccc1NC(=O)C1=C(C)NC(C)=C(C(=O)Nc2ccccc2OC)C1c1ccccc1Cl |  |  |  |  | H37Rv | inhibition | 2.5 µg/mL | 37% |
| COc1nc2ccc(Br)cc2cc1C(c1ccccc1)C(O)(CCN1C=CN(C)C=C1)c1cccc2ccccc12 |  |  |  |  | H37Rv | MIC90 |  | 48.5 µg/mL |
| CC(C)N=c1cc2n(-c3ccc(Cl)cc3)c3ccccc3nc-2cc1Nc1ccc(Cl)cc1 |  |  | multidrug-resistant |  | 2219 | MIC |  | 0.12 µg/mL |
| CN(C)CCNc1cc(C(F)(F)F)nc2c(C(F)(F)F)cccc12 |  |  |  |  |  | MIC |  | 31 µM |
| CC1(C)CC(N=c2cc3n(-c4ccc(Cl)cc4Cl)c4ccccc4nc-3cc2Nc2ccc(Cl)cc2Cl)CC(C)(C)N1 |  |  |  |  | TBRP274 (INH SM-resistant) | MIC |  | 0.03 µg/mL |
| O=C(O)/C=C/c1ccccc1 |  |  |  |  | H37Rv | MIC |  | 100 µg/mL |
| NNC(=O)c1ccncc1 |  |  |  |  | MDR-1 (MDR) | MIC |  | 12.8 µg/mL |
| CC(NNC(=O)c1ccncc1)c1ccc(Cl)c(Cl)c1 |  |  |  |  | Ethionamide-resistant | MIC |  | >50 µg/mL |
| NS(=O)(=O)c1ccc(N2C(=O)C(=O)N(c3ccccc3)C2=S)cc1 |  | BACTEC |  |  | H37Rv | MIC bound |  | >12.5 µg/mL |
| CC1COc2c(N3CCN(C)CC3)c(F)cc3c(=O)c(C(=O)O)cn1c23 |  |  |  |  | 099-3 | MIC |  | 1 µg/mL |
| CCCCNC(=S)N=Nc1c(O)n(C)c2ccc(OC(F)(F)F)cc12 |  | broth dilution / resazurin |  |  | H37Rv | EC50 |  | 40.76 µg/mL |
| COc1nc2ccc(Br)cc2cc1C(c1ccccc1)C(O)(CCCCN(C)C)c1ccc2ccccc2c1 |  |  |  |  | H37Rv | MIC90 |  | 1.85 µg/mL |